Assay results published in the supplement of paper PMC9931576.
Human monoclonal antibodies against the spike receptor-binding domain (heavy:light variable regions). IC50 against pseudoviruses bearing the spike of naturally observed variants; lower = stronger; >10 µg/ml means not reached at the top dose. No active / inactive call. The stated detection limit is 0.0005 µg/ml; values near or below 0.001 µg/ml lie at the floor of the assay.

Experiments:
Test in all cases: pseudovirus neutralization IC50; higher = weaker neutralization
[1] = biological target: SARS-CoV-2 Omicron BA.1 spike pseudovirus
Protocol: (§1)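 Single-round VSV luciferase pseudovirus mixed with antibody dilutions for 1 h and put on Huh-7 cells for about a day; IC50 from the dose curve.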

[2] = biological target: SARS-CoV-2 Omicron BA.2 spike pseudovirus
Protocol: as §1

[3] = biological target: SARS-CoV-2 Omicron BA.2.75 spike pseudovirus
Protocol: as §1

[4] = biological target: SARS-CoV-2 Omicron BA.5 spike pseudovirus
Protocol: as §1

[5] = biological target: SARS-CoV-2 Omicron BQ.1.1 spike pseudovirus
Protocol: as §1

[6] = biological target: SARS-CoV-2 Omicron XBB spike pseudovirus
Protocol: as §1

[7] = biological target: SARS-CoV-2 early D614G spike pseudovirus
Protocol: as §1

B1: BD56-1945 (protein)
chain 1: QVQLVQSGAEMKKPGSSVKVSCKASGGTFDSQSISWVRQAPGQGLEWMGRLIPMFGVPNYAQRFQGRITITADKSTTTAYMELSRLRSEDTAVYYCARDHGYIHGYSDYWGQGTLVTVSS
chain 2: EIVLTQSPATLSLSPGERATLSCRASQGVSNYLAWYQQKLGQAPRLLIYDAFKRATGIPARFSGSGSGTDFTLTISSLEPEDFAVYYCQQRSNWPLTFGGGTKVEIK
[1]
  pseudovirus neutralization IC50: > 10 mg/L
[2]
  pseudovirus neutralization IC50: > 10 mg/L
[3]
  pseudovirus neutralization IC50: > 10 mg/L
[4]
  pseudovirus neutralization IC50: > 10 mg/L
[5]
  pseudovirus neutralization IC50: > 10 mg/L
[6]
  pseudovirus neutralization IC50: > 10 mg/L
[7]
  pseudovirus neutralization IC50: 0.00171 mg/L

B2: BD56-1935 (protein)
chain 1: QVQLQESGPGLVKPSETLSLTCTVSGGSVSSGSCYWSWIRQPPGKGLEWIGYIYYNGRTNYNPSLKSRVTISLDTSRNQFSLKVTSVTAADTAVYYCAREPIVVPAAIPPYGLDVWGQGTTVTVSS
chain 2: EIVLTQSPATLSLSPGERATLSCRASQSVNSYLAWYQQKPGQAPRLLIYDSSNRATGIPARFSGSGSGTDFTLTISSLEPEDFAVYYCLQRSNWPPLTFGGGTKVEIK
[1]
  pseudovirus neutralization IC50: 0.124 mg/L
[2]
  pseudovirus neutralization IC50: 0.062 mg/L
[3]
  pseudovirus neutralization IC50: 0.0933 mg/L
[4]
  pseudovirus neutralization IC50: > 10 mg/L
[5]
  pseudovirus neutralization IC50: > 10 mg/L
[6]
  pseudovirus neutralization IC50: 0.248 mg/L
[7]
  pseudovirus neutralization IC50: 0.00212 mg/L

B3: BD56-1915 (protein)
chain 1: QVQLEQSGAEVKKPGSSVKVSCKASGDTFSRHAITWVRQAPGQGLEWMGRIIPMFDIPNYAQKFQGRVTLTADKSTSTVYMEVSSLRSDDTAVYYCATSAYQYGSSGYYIDHWGQGTLVTVSS
chain 2: EIVLTQSPGTLSLSPGERATLFCRASQSVSSSYLAWYQQKAGQAPRLLIYGASNRAAGIPDRFGGSGSGTDFTLTISRLEPEDFAVYYCHQYHSSPRTFGQGTKVEVK
[1]
  pseudovirus neutralization IC50: 0.0781 mg/L
[2]
  pseudovirus neutralization IC50: 0.0978 mg/L
[3]
  pseudovirus neutralization IC50: 0.0232 mg/L
[4]
  pseudovirus neutralization IC50: > 10 mg/L
[5]
  pseudovirus neutralization IC50: > 10 mg/L
[6]
  pseudovirus neutralization IC50: > 10 mg/L
[7]
  pseudovirus neutralization IC50: 0.00194 mg/L

B4: BD56-1937 (protein)
chain 1: EVQLVESGGGLVQPGGSLRLSCEASGLIVSRNYMSWVRQAPGKGLEWVSVIYAGGSTFYADSVKGRFTISRNDSKNTMYLQLNSLRAEDTAVYFCARDQGEDVFDIWGQGTMVTVSS
chain 2: DIQLTQSPAFLSASVGDRVTITCRASQGISSYLAWYQQKPGKAPKLLIYAASTLQSGVPSRFSGSGSGTAFTLTISSLQPEDFATYYCQQLNSYPPLFGGGTKVEIK
[1]
  pseudovirus neutralization IC50: 0.0845 mg/L
[2]
  pseudovirus neutralization IC50: 0.0995 mg/L
[3]
  pseudovirus neutralization IC50: > 10 mg/L
[4]
  pseudovirus neutralization IC50: > 10 mg/L
[5]
  pseudovirus neutralization IC50: > 10 mg/L
[6]
  pseudovirus neutralization IC50: > 10 mg/L
[7]
  pseudovirus neutralization IC50: 0.0238 mg/L

B5: BD56-1895 (protein)
chain 1: EVQLLESGGGLVQPGGSLRISCAASGFTFRDNAMTWVRQAPGKGLEWVSSVSYRGSDTYYADSVKGRFTISRDNSNNTLYLQMNSLRVDDTAVYFCAAGRVTADWYFDLWGRGTLVTVSS
chain 2: QSALTQPRSVSGSPGQSVTISCTGTSSDVGAYNYVSWYQQHPGKAPKIMIYDVTKRPSGVPDRFSGSKSGNTASLTISGLQAEDEADYFCCSYAGTWVFGGGTKVTVL
[1]
  pseudovirus neutralization IC50: 0.289 mg/L
[2]
  pseudovirus neutralization IC50: 0.00287 mg/L
[3]
  pseudovirus neutralization IC50: 0.194 mg/L
[4]
  pseudovirus neutralization IC50: 0.00242 mg/L
[5]
  pseudovirus neutralization IC50: > 10 mg/L
[6]
  pseudovirus neutralization IC50: > 10 mg/L
[7]
  pseudovirus neutralization IC50: 0.0596 mg/L

B6: BD56-1928 (protein)
chain 1: EVQLVESGGGLVQPGGSLRLSCAASGFTVTRTYMSWVRQAPGKGLEWVSVINSAGTTYYADSVKGRFIISRDNSKNTLYLQMNSLRAEDTAVYYCARDPAGFGEFGFDFWGQGTLVTVSS
chain 2: DIQLTQSPSSLSASVGDRVTITCRASQGIGSYLAWYQQKPGKAPKLLIYAASTLQSGVPSRFSGGGSGTDFTLTISSLQPEDFATYYCQQLNSYPPFTFGGGTKVEMK
[1]
  pseudovirus neutralization IC50: 3.38 mg/L
[2]
  pseudovirus neutralization IC50: 3.11 mg/L
[3]
  pseudovirus neutralization IC50: > 10 mg/L
[4]
  pseudovirus neutralization IC50: 2.61 mg/L
[5]
  pseudovirus neutralization IC50: > 10 mg/L
[6]
  pseudovirus neutralization IC50: > 10 mg/L
[7]
  pseudovirus neutralization IC50: 0.00901 mg/L

B7: BD56-1930 (protein)
chain 1: QVQLVQSGAEVKKPGSSVEVSCKASGGTFSRYAISWVRQAPGQGLEWMGRIIPMFGMANYAQKFQGRVTITADKSTSTAYMEMSSLRSEDTAVYYCATSPFYSDSSGYYLDNWGQGTLVTVSS
chain 2: DIQMTQSPSSLSASVGDRVTITCRASQDIHNYLAWYQQKPGKVPKLLIYATSTLQSGVPSRFSGSGSGTDFTLTISSLQPEDVATYYCQRYDSAPRTFGPGTKVDIK
[1]
  pseudovirus neutralization IC50: 0.192 mg/L
[2]
  pseudovirus neutralization IC50: 0.132 mg/L
[3]
  pseudovirus neutralization IC50: 0.157 mg/L
[4]
  pseudovirus neutralization IC50: > 10 mg/L
[5]
  pseudovirus neutralization IC50: > 10 mg/L
[6]
  pseudovirus neutralization IC50: > 10 mg/L
[7]
  pseudovirus neutralization IC50: 0.00153 mg/L

B8: BD56-1949 (protein)
chain 1: QVQLVQSGAEVKKPGSSVKVSCKASGDTFSRYAISWVRQAPGQGLEWMGRLIPRFGMANYAQNFQGRVTMSADTSTSTAYMEMSSLTSEDTAVYYCATSPFFPDSSAYYLDYWGQGTLVTVSS
chain 2: DIQMTQSPSSLSASVGDRVTITCRASQGISNFLAWYQQKPGKVPKLLIYGASILQSGVPSRFSGSGSGTDFTLTISSLQPEDVATYYCQKYNSAPRTFGPGTKVDIK
[1]
  pseudovirus neutralization IC50: 0.31 mg/L
[2]
  pseudovirus neutralization IC50: 0.167 mg/L
[3]
  pseudovirus neutralization IC50: 0.00994 mg/L
[4]
  pseudovirus neutralization IC50: > 10 mg/L
[5]
  pseudovirus neutralization IC50: > 10 mg/L
[6]
  pseudovirus neutralization IC50: > 10 mg/L
[7]
  pseudovirus neutralization IC50: 0.00315 mg/L

B9: BD56-1919 (protein)
chain 1: DVQLVESGGGLVQPGGSLKLSCAASGFTFSGSAMHWVRQASGKGLEWVGRIRSILSSYETAYSASLKGRFTISRDDSKNTAYLQLNSLKTEDTAVYYCSMSGYSGYDELDIWGQGTLVTVSS
chain 2: DIQMTQSPSSLSASVGDRVTITCRAGQSITSYLNWYQQKPGKAPKLLIYAASSLQSGVPSRFSGSGSGTDFTLTISSLQPEDFATYYCQQSHSTPFTFGPGTKVDIK
[1]
  pseudovirus neutralization IC50: > 10 mg/L
[2]
  pseudovirus neutralization IC50: > 10 mg/L
[3]
  pseudovirus neutralization IC50: > 10 mg/L
[4]
  pseudovirus neutralization IC50: > 10 mg/L
[5]
  pseudovirus neutralization IC50: > 10 mg/L
[6]
  pseudovirus neutralization IC50: > 10 mg/L
[7]
  pseudovirus neutralization IC50: 0.153 mg/L

B10: BD56-1911 (protein)
chain 1: QVQLQESGPGLVKPSGTLSLTCVVSGGSIITTNWWSWVRQSPGKGLEWIGEIHHSGNTNYNPSLKSRVTISVDKSKNHFSLNLSSVTAADTAIFYCARDRGGVGDGFDIWGQGTMVTVSS
chain 2: QSALTQPASVSGSPGQSITISCTGTSSDVGGYNYVSWYQQHPGKAPKLIIYDVRDRPSGISNRFSGSKSGNTASLTISGLQPEDEADYYCNSFTSSSTRVFGTGTKVTVL
[1]
  pseudovirus neutralization IC50: > 10 mg/L
[2]
  pseudovirus neutralization IC50: 0.0239 mg/L
[3]
  pseudovirus neutralization IC50: 1.94 mg/L
[4]
  pseudovirus neutralization IC50: 0.0227 mg/L
[5]
  pseudovirus neutralization IC50: > 10 mg/L
[6]
  pseudovirus neutralization IC50: > 10 mg/L
[7]
  pseudovirus neutralization IC50: 0.0111 mg/L

B11: BD56-1907 (protein)
chain 1: QVQLVQSGGEVKKPGSSVKVSCKASGGASSSYAISWVRQAPGQSFEWMGRIIPVLNLTNYAQNFQGRVTITADKSTSTTYMELSSLRSEDTAIYFCARVGFGNVWYLFDFWGQGTLVAVSS
chain 2: EIVMTQSPATLSVSPGERATLSCRASQSVSTNLAWYQQKPGQAPRLLIYGASTRATGISARFSGSGSGTDFTLTISSLQSEDFALYYCQQYDNWYTFGQGTKLEIK
[1]
  pseudovirus neutralization IC50: 0.00492 mg/L
[2]
  pseudovirus neutralization IC50: 0.00567 mg/L
[3]
  pseudovirus neutralization IC50: 0.183 mg/L
[4]
  pseudovirus neutralization IC50: > 10 mg/L
[5]
  pseudovirus neutralization IC50: > 10 mg/L
[6]
  pseudovirus neutralization IC50: > 10 mg/L
[7]
  pseudovirus neutralization IC50: 0.00307 mg/L

B12: BD56-1922 (protein)
chain 1: QVHLVESGGGVVQPGGSLRLSCVASGFDFNTYGMHWVRQAPGKGLEWVAVIWFDGKNRNYGEFVKGRFAISRDNAKNTLYLQMNRLRAEDTAVYYCAKDRAHFYGSGSYFDADYYGMDVWGQGTTVTVSS
chain 2: DIQMTQSPSSLSASVGDSVTILCRASQAINNFLAWFQQKPGKAPRSLIYSASILQSGVPSTFSGSGSGTDFTLNISSLQPDDSAIYYCQQYKAYPLTFGPGTKVEIK
[1]
  pseudovirus neutralization IC50: 0.0541 mg/L
[2]
  pseudovirus neutralization IC50: 0.0375 mg/L
[3]
  pseudovirus neutralization IC50: 0.0255 mg/L
[4]
  pseudovirus neutralization IC50: 0.478 mg/L
[7]
  pseudovirus neutralization IC50: 0.000329 mg/L

B13: BD56-1921 (protein)
chain 1: QVHLQESGPGLVKPSETLSLTCAVAGDSISSNNWWIWVRQPPGKGLEWIGEIFHTGGSQYNPSLKSRVTISVDKSKSQFSLRLNSVTAADTAIYYCAKGLGMVDSWGQGTLVTVSS
chain 2: DIQMTQSPSSLSASVGDRVTITCRASQGISNSLAWYQQIPGKAPKLLLYSASTLESGVPSRFSGSGSGTDFTLSISSLQPADFATYYCQQYYSSPRTFGQGTKVEIK
[1]
  pseudovirus neutralization IC50: 0.00452 mg/L
[2]
  pseudovirus neutralization IC50: 0.00271 mg/L
[3]
  pseudovirus neutralization IC50: 0.00364 mg/L
[4]
  pseudovirus neutralization IC50: 0.00815 mg/L
[5]
  pseudovirus neutralization IC50: 0.051 mg/L
[6]
  pseudovirus neutralization IC50: 0.383 mg/L
[7]
  pseudovirus neutralization IC50: 0.00448 mg/L
